Pooled drug test results. Numbers come from NIAID ChemDB, via PubChem.

Common to all: tests in culture; species: Mycobacterium avium complex; read-out: MIC

An empty or dashed field is not shown. Neighbouring rows are from separate reports.

SMILES,strain or isolate,method,result
CC[C@H]1OC(=O)[C@H](C)[C@@H](O[C@H]2C[C@@](C)(OC)[C@@H](O)[C@H](C)O2)[C@H](C)[C@@H](O[C@@H]2O[C@H](C)C[C@H](N(C)C)[C@H]2O)[C@](C)(OC)C[C@@H](C)C(=O)[C@H](C)[C@@H](O)[C@]1(C)O,3217,,2 µg/mL
CO[C@H]1/C=C/O[C@@]2(C)Oc3c(C)c(O)c4c(O)c(c5c(c4c3C2=O)NC2(CCN(CC(C)C)CC2)N=5)=NC(=O)/C(C)=C\C=C\[C@H](C)[C@H](O)[C@@H](C)[C@@H](O)[C@@H](C)[C@H](OC(C)=O)[C@@H]1C,155-4,,0.5 µg/mL
O=C(O)c1cn(C2CC2)c2c(F)c(N3CCS(=O)(=O)CC3)c(F)cc2c1=O,1915112,,4 µg/mL
NCCC[C@H](N)CC(=O)N[C@H]1CNC(=O)[C@H]([C@H]2C[C@H](O)NC(N)=N2)NC(=O)/C(=C/NC(N)=O)NC(=O)[C@H](CO)NC(=O)[C@H](CO)NC1=O,TMC 1467,,0.19 µg/mL
NNC(=O)c1ccncc1,13016 (serotype 4),,1.6 µg/mL
CN[C@@H]1[C@H](O[C@H]2[C@H](O[C@H]3[C@H](O)[C@@H](O)[C@H](N=C(N)N)[C@@H](O)[C@@H]3N=C(N)N)O[C@@H](C)[C@]2(O)C=O)O[C@@H](CO)[C@H](O)[C@H]1O,TMC 1473,,1.56 µg/mL
O=C(O)c1cn(C2CC2)c2c(F)c(N3CCS(=O)CC3)c(F)cc2c1=O,1988557,,4 µg/mL
CN[C@@H]1[C@H](O[C@H]2[C@H](O[C@H]3[C@H](O)[C@@H](O)[C@H](N=C(N)N)[C@@H](O)[C@@H]3N=C(N)N)O[C@@H](C)[C@]2(O)C=O)O[C@@H](CO)[C@H](O)[C@H]1O,13008 (serotype 20),,1.6 µg/mL
CC1CN(c2cc3c(cc2F)c(=O)c(C(=O)O)cn3-c2ccc(F)cc2F)CCN1,3211,,4 µg/mL
C[C@@H]1CN(c2c(F)c(N)c3c(=O)c(C(=O)O)cn(C4CC4)c3c2F)C[C@H](C)N1,24,broth dilution,2 µg/mL
NCCC(O)C(N)CC(=O)NC1CNC(=O)C(C2CCN=C(N)N2)NC(=O)/C(=C/NC(N)=O)NC(=O)C(CO)NC(=O)C(CO)NC1=O,TMC 1411,,1.56 µg/mL
CC(C)N=c1cc2n(-c3ccc(Cl)cc3)c3ccccc3nc-2cc1Nc1ccc(Cl)cc1,559/HIV+,,0.25 µg/mL
NCC1(O)CCN(c2c(F)cc3c(=O)c(C(=O)O)cn(N4CC4)c3c2F)C1,1988557,,32 µg/mL
NCC[C@H](O)C(=O)N[C@@H]1C[C@H](N)[C@@H](O[C@H]2O[C@H](CN)[C@@H](O)[C@H](O)[C@H]2O)[C@H](O)[C@H]1O[C@H]1O[C@H](CO)[C@@H](O)[C@H](N)[C@H]1O,Isolate 64,,12.5 µg/mL
CC1CN(c2c(F)cc3c(=O)c(C(=O)O)cn(C4CC4)c3c2F)C(C)CN1,1915112,,4 µg/mL
NC[C@@H]1O[C@H](O[C@H]2[C@@H](O)[C@H](O[C@@H]3[C@@H](O)[C@H](N)C[C@H](N)[C@H]3O[C@H]3O[C@H](CO)[C@@H](O)[C@H](O)[C@H]3N)O[C@@H]2CO)[C@H](N)[C@@H](O)[C@@H]1O,CH-4/HIV+,,3.12 µg/mL
CN1CC2CCC1CN2c1c(F)cc2c(=O)c(C(=O)O)cn(C3CC3)c2c1F,1988557,,2 µg/mL
NCC[C@H](O)C(=O)N[C@@H]1C[C@H](N)[C@@H](O[C@H]2O[C@H](CN)[C@@H](O)[C@H](O)[C@H]2O)[C@H](O)[C@H]1O[C@H]1O[C@H](CO)[C@@H](O)[C@H](N)[C@H]1O,3216,,16 µg/mL
NC[C@H]1O[C@H](O[C@H]2[C@H](O)[C@@H](O[C@H]3O[C@H](CO)[C@@H](O)[C@H](N)[C@H]3O)[C@H](N)C[C@@H]2N)[C@H](O)[C@@H](O)[C@@H]1O,ATCC 15769,,50 µg/mL
O=C(O)c1cn(C2CC2)c2c(F)c(N3CCNCC3)c(F)cc2c1=O,1915112,,2 µg/mL

The last 2 rows once more:

SMILES | strain or isolate | method | result
NC[C@H]1O[C@H](O[C@H]2[C@H](O)[C@@H](O[C@H]3O[C@H](CO)[C@@H](O)[C@H](N)[C@H]3O)[C@H](N)C[C@@H]2N)[C@H](O)[C@@H](O)[C@@H]1O | ATCC 15769 |  | 50 µg/mL
O=C(O)c1cn(C2CC2)c2c(F)c(N3CCNCC3)c(F)cc2c1=O | 1915112 |  | 2 µg/mL